Drawing on PubChem BioAssay AID1476 (National Center for Advancing Translational Sciences (NCATS), 2009), this text covers max response, negative = inhibition for 71 compounds.

By UniProt entry, the sequences of proteins in these tests, tags left out. Residues count along the entry.
UniProt P25779, 123-467 limits assumed: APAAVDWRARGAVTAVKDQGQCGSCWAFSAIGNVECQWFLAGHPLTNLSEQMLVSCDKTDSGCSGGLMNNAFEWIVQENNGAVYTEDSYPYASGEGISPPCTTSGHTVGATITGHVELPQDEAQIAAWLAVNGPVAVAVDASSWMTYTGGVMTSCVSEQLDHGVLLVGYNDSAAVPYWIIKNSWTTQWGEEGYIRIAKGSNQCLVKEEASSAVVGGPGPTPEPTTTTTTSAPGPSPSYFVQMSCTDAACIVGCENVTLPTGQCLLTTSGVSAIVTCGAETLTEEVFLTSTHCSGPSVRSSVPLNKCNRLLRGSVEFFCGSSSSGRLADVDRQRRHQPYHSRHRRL

“And” between values parts separate entries of the source, which are not always exact repeats. Equal values may be shown once. This is a selection; strong and weak results do not stand in their true shares. Records with an inconclusive call do not appear. Some structures show a salt or complex split into parts, the way the source records it. The source made the active and inactive calls. Calls follow the shape of the dose curve; as a rule, active = well fitted inhibition curve with a large enough effect; inconclusive = small, poorly fitted or top-dose-only effect, or effect the other way; inactive = flat fitted curve, though single readings scatter.

The test has as its target Cruzipain (Trypanosoma cruzi) (UniProt P25779). Briefly: qHTS Assay for Promiscuous and Specific Inhibitors of Cruzain (without detergent).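 Also: plate controls were enzyme without inhibitor for no effect and buffer without enzyme for full effect; nearly all actives have a fitted effect of over 40% in size.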 To be noted: purified cruzain, Z-FR-AMC fluorescence, no detergent. (qHTS replaces the single test concentration by a dilution series.)
Regarding `Cc1ccc([N+](=O)[O-])c([N+](=O)[O-])c1`, the max response, negative = inhibition was inactive: -2.06%. Regarding `Cc1c([N+](=O)[O-])cccc1[N+](=O)[O-]`, the max response, negative = inhibition is inactive: -3.41%.

`C(Cc1nn[nH]n1)Cc1nn[nH]n1`: the max response, negative = inhibition is inactive: 12.7%. On to `O=C(OC1CN2CCC1CC2)c1cccc(Cl)c1` (stereo unspecified), for which the max response, negative = inhibition was inactive: 2.2%. Under `COc1ccc(OP(C)(=O)Nc2cccc(Br)c2)cc1` (stereo unspecified) stands inactive: -1.84%. To `CN(C)CCOC(=O)C(O)(c1ccccc1)C1CCCCC1` (stereo unspecified) belongs inactive: -5.67%; to `[N-]=[N+]=Nc1ccc([As](=O)(O)O)cc1`, inactive: 8.49%; to `Cc1cc([N+](=O)[O-])cc([N+](=O)[O-])c1O`, inactive: -17.6%. Under `O=P1(Nc2ncccn2)COc2ccccc2OC1` stands inactive: -11.4%; under `COc1ccccc1OP(C)(=O)Nc1c(C)cccc1C` (stereo unspecified), inactive: -2.45%.

For the compound `CN1CCCCC1COC(=O)C1(O)c2ccccc2CCc2ccccc21` (stereo unspecified), the max response, negative = inhibition is inactive: -12.3%. Consider `O=P1(Nc2ccc(Br)cn2)COc2ccccc2OC1`, for which the max response, negative = inhibition was inactive: 1.39%. `Cc1ccc(OCC(=O)OC2CN3CCC2CC3)cc1` (stereo unspecified): the max response, negative = inhibition was inactive: 2.39%.

As to `CP(=O)(Nc1ccc(SC(F)(F)F)cc1)Oc1ccccc1` (stereo unspecified), the max response, negative = inhibition is inactive: 12.7%. `COc1cc(C2NCCC3(OCCO3)C2(C)C)cc(OC)c1OC.O=[N+]([O-])c1cc([N+](=O)[O-])c(O)c([N+](=O)[O-])c1` (stereo unspecified): the max response, negative = inhibition was inactive: -2.26%. With `Cc1nc2ccc3ccccc3c2s1.O=[N+]([O-])c1cc([N+](=O)[O-])c(O)c([N+](=O)[O-])c1`, the max response, negative = inhibition was inactive: -10%. In the case of `CN(C(=O)Cc1ccc(Cl)c(Cl)c1)[C@@H]1CCCC[C@H]1N1CCCC1`, the max response, negative = inhibition is inactive: 9.31%. As to `CN(CCCl)Cc1cc(Cl)c(NC2=NCCN2)c(Cl)c1`, the max response, negative = inhibition was inactive: -2.93%. As for `O=P1(Nc2ccccn2)COc2ccccc2OC1`, the max response, negative = inhibition was inactive: 5.92%. In the case of `Clc1n[nH]nc1-c1nn[nH][15n]1`, the max response, negative = inhibition is inactive: -7.38%. To `Cc1ccc(C)c(NP(C)(=O)Oc2ccccc2)c1` (stereo unspecified) belongs inactive: 0.685%. Regarding `O=C(CC(=O)c1ccccc1)O[C@H]1CN2CCC1CC2`, the max response, negative = inhibition is inactive: 0.583%. On to `NS(=O)(=O)Cc1ccc([As](=O)(O)O)cc1`, for which the max response, negative = inhibition was inactive: -3.78%.

In the case of `Cc1cc(C)cc(OP(C)(=O)Nc2ccccn2)c1` (stereo unspecified), the max response, negative = inhibition is inactive: -1.09%.

With `CCOP(=O)(Nc1cccc2ccccc12)OCC`, the max response, negative = inhibition was inactive: -1.66%. Take `CN(C(=O)Cc1ccc(Cl)c(Cl)c1)[C@@H]1CC[C@]2(CCCO2)C[C@H]1N1CCCC1`: the max response, negative = inhibition was inactive: 12.9%. With `CCOC(=O)c1ccc(NP(C)(=O)Oc2cc(C)cc(C)c2)cc1` (stereo unspecified), the max response, negative = inhibition was inactive: 17%.

`Cc1cc(C)cc(OP(C)(=O)Nc2ccc(C)cc2C)c1` (stereo unspecified): the max response, negative = inhibition is inactive: 1.88%.

With `Cc1cccc(OCC(=O)OC2CN3CCC2CC3)c1` (stereo unspecified), the max response, negative = inhibition is inactive: -1.25%. For `O=[N+]([O-])CC(O)c1ccc([N+](=O)[O-])cc1` (stereo unspecified), the max response, negative = inhibition was inactive: 7.48%.

For `NC(=O)Nc1ccc([As](=O)(O)O)cc1`, the max response, negative = inhibition is inactive: 5.2% and inactive: -3.17%. As for `CC1=NCCc2c1[nH]c1ccccc21.O=[N+]([O-])c1cc([N+](=O)[O-])c(O)c([N+](=O)[O-])c1`, the max response, negative = inhibition is inactive: 6.71%. As to `O=[N+]([O-])c1ccc2c(c1)nnn2O`, the max response, negative = inhibition was inactive: 5.91%. Turning to `CN(C(=O)Cc1ccccc1)[C@@H]1CC[C@]2(CCCO2)C[C@H]1N1CCCC1`, the max response, negative = inhibition was inactive: 14.7%. Turning to `CCOP1(=S)c2c(C)nn(CCC#N)c2N=C(c2ccc(F)cc2)N1C` (stereo unspecified), the max response, negative = inhibition was inactive: 27.3%.

Regarding `Cc1ccc([N+](=O)[O-])cc1[N+](=O)[O-]`, the max response, negative = inhibition is inactive: -4.55%.

Consider `O=[N+]([O-])OCC(CO[N+](=O)[O-])(CO[N+](=O)[O-])CO[N+](=O)[O-]`, for which the max response, negative = inhibition was inactive: -11.4%.

Regarding `O=P(Nc1nccs1)(c1ccccc1)c1nc2ccccc2s1` (stereo unspecified), the max response, negative = inhibition is inactive: 2.51%. To `O=[N+]([O-])c1cccc([N+](=O)[O-])c1` belongs inactive: -2.65%. Take `O=[As](O)(O)c1ccc([As](=O)(O)O)cc1`: the max response, negative = inhibition was inactive: 0.995%.

In the case of `Cc1ccc(NP(C)(=O)Oc2ccccc2)c(C)c1` (stereo unspecified), the max response, negative = inhibition was inactive: 0.854%. Consider `COc1ccccc1OP(C)(=O)Nc1ccc(C)cc1` (stereo unspecified), for which the max response, negative = inhibition is inactive: 6.53%. Turning to `[N-]=[N+]=NCC(N)=O`, the max response, negative = inhibition was inactive: 10.7%. As for `O=[As]c1ccc(S(=O)(=O)NCCO)cc1` (stereo unspecified), the max response, negative = inhibition was inactive: 5.71%. As for `ClCCSc1nnc(-c2cccnc2)o1`, the max response, negative = inhibition is inactive: 2.22%. In the case of `CCOC(=O)c1ccc(NP(C)(=O)Oc2ccccc2)cc1` (stereo unspecified), the max response, negative = inhibition is inactive: -2.88%. Take `O=[N+]([O-])c1cc([N+](=O)[O-])c(-c2ccn[nH]2)s1`: the max response, negative = inhibition was inactive: -15.8%.

For `COc1ccc(OP(C)(=O)Nc2cccc(F)c2)cc1` (stereo unspecified), the max response, negative = inhibition was inactive: 10.2%. On to `CCN(CC)C(=S)SC(NC=O)C(Cl)(Cl)Cl` (stereo unspecified), for which the max response, negative = inhibition is inactive: -6.41%. Consider `Cc1ccc2nc3c(c(C)c2c1)CC(C(Cl)Cl)S3` (stereo unspecified), for which the max response, negative = inhibition was inactive: -11.6%. `CC(C)(C)c1ccc(OP(C)(=O)Nc2ccc(SC(F)(F)F)cc2)cc1` (stereo unspecified): the max response, negative = inhibition was inactive: 6.5%.

As for `O=[N+]([O-])[O-].[NH4+]`, the max response, negative = inhibition was inactive: 3.9%. On to `O=C(OC1CN2CCC1CC2)C12CC3CC(CC(C3)C1)C2` (stereo unspecified), for which the max response, negative = inhibition is inactive: -7.12%. As for `Cc1c2c(nc3ccccc13)SC(C(Cl)Cl)C2` (stereo unspecified), the max response, negative = inhibition was inactive: -9.24%.

Take `NC(=O)Nc1cc([As](=O)(O)O)cc(I)c1O`: the max response, negative = inhibition was inactive: 7.9%. For the compound `CCOC(=O)c1ccc(NP(C)(=O)Oc2ccc(OC)cc2)cc1` (stereo unspecified), the max response, negative = inhibition was inactive: -0.16%. Turning to `CCOP(C)(=S)SCC(=O)NC(C)C(=O)O` (stereo unspecified), the max response, negative = inhibition was inactive: -0.975%. Consider `CP(=O)(Nc1ccccn1)Oc1ccc(Cl)cc1` (stereo unspecified), for which the max response, negative = inhibition is inactive: -4.43%. Regarding `CCC(C)N(CC(C)C)C(=S)SC(NC(C)=O)C(Cl)(Cl)Cl` (stereo unspecified), the max response, negative = inhibition is inactive: 18.3%. In the case of `[Au].[Au].c1ccc([PH+](c2ccccc2)c2ccccc2)cc1.c1ccc([PH+](c2ccccc2)c2ccccc2)cc1.n1n[nH]c(-c2nnn[nH]2)n1`, the max response, negative = inhibition is inactive: -7.26%. In the case of `Cc1cccc(C)c1OP(C)(=O)Nc1ccc(SC(F)(F)F)cc1` (stereo unspecified), the max response, negative = inhibition is inactive: 9.48%. For the compound `COP1(=S)c2c(C)nn(CCC#N)c2N=C(c2ccc(F)cc2)N1C` (stereo unspecified), the max response, negative = inhibition was inactive: -4.96%. Under `Cc1cc(C)cc(OP(C)(=O)Nc2ccc(SC(F)(F)F)cc2)c1` (stereo unspecified) stands inactive: 27%. Under `O=C(O)[C@@H](O)c1ccc([As](=O)(O)O)cc1` stands inactive: -0.902%.

As for `O=C(COc1ccccc1)OC1CN2CCC1CC2` (stereo unspecified), the max response, negative = inhibition was inactive: -8.78%. To `CP(=O)(NC(=O)Nc1ccccc1)Oc1ccccc1` (stereo unspecified) belongs inactive: 5.28%; to `CP(=S)(Nn1cnnc1)Oc1ccccc1` (stereo unspecified), inactive: 4.53%.

Regarding `CP(=O)(Nc1ccccc1Br)Oc1ccccc1` (stereo unspecified), the max response, negative = inhibition was inactive: 3.76%.

Regarding `CN(N=O)C(=N)N[N+](=O)[O-]`, the max response, negative = inhibition was inactive: -1.82%. With `N1=C(c2nnc(-c3nn[nH]n3)nn2)NNN1`, the max response, negative = inhibition was inactive: 0.517%. Regarding `Cc1cc(SC(NC(=O)c2ccccc2)C(Cl)(Cl)Cl)nc(C(C)C)n1` (stereo unspecified), the max response, negative = inhibition was inactive: 0.774%.
